Experimental data as given in patent publication US7115708B2 (priority 2001, dated 2006).

The chains behind the UniProt entries cited, without tags or fusion partners. Where a name states a change or a piece, a line headed by the entry shows the natural chain unless it says otherwise.
UniProt P33032: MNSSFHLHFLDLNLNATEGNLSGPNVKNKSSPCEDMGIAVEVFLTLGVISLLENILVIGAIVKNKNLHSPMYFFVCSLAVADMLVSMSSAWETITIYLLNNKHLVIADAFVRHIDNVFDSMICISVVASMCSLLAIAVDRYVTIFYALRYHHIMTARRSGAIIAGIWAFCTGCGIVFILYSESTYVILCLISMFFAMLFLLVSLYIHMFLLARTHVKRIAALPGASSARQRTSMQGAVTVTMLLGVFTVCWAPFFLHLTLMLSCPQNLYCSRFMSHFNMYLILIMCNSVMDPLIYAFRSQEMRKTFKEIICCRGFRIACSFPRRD
UniProt P41968: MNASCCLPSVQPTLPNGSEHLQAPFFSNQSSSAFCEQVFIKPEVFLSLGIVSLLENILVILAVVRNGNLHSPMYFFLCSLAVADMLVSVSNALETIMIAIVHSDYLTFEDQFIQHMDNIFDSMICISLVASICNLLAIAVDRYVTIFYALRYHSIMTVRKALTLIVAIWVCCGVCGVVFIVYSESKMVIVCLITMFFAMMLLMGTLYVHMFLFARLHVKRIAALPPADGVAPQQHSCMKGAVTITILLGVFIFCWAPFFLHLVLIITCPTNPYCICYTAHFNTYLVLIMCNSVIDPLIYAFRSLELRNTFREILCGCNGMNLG
UniProt Q99705: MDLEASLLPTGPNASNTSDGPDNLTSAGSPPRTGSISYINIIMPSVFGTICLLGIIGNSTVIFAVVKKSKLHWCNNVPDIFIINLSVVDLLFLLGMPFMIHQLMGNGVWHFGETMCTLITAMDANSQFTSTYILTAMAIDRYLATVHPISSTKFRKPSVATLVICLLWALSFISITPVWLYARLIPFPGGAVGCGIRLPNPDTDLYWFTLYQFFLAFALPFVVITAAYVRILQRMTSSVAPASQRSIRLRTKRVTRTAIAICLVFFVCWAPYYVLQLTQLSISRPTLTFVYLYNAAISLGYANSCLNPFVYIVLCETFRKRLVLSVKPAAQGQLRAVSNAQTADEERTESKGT
UniProt P32245: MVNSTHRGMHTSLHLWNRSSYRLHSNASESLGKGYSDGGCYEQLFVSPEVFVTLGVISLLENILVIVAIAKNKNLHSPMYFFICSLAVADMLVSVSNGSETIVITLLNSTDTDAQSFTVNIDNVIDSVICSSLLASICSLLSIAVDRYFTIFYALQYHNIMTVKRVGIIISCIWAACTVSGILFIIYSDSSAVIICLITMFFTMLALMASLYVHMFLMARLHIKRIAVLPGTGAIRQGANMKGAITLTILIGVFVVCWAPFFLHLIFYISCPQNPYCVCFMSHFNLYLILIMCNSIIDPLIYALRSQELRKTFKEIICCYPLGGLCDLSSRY
UniProt P35346: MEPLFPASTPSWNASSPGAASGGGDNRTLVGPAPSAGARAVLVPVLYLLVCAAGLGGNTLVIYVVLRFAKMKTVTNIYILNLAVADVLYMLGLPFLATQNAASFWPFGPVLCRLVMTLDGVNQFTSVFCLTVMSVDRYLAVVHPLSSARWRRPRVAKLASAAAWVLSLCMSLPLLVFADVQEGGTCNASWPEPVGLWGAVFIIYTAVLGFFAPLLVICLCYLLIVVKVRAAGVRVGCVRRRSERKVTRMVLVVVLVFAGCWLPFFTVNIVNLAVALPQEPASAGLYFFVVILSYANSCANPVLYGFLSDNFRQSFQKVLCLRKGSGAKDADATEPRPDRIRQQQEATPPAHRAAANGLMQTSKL
UniProt P31391: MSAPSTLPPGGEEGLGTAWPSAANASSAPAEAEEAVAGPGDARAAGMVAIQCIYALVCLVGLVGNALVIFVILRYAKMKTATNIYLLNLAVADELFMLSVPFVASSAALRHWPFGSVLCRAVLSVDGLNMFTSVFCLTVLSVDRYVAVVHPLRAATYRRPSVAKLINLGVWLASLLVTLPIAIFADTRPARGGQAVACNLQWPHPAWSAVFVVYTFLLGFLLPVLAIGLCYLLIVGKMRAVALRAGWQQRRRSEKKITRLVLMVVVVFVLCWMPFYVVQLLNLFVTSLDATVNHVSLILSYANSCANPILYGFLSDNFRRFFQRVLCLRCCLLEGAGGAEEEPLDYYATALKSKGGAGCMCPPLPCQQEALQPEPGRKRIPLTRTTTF
UniProt P32745: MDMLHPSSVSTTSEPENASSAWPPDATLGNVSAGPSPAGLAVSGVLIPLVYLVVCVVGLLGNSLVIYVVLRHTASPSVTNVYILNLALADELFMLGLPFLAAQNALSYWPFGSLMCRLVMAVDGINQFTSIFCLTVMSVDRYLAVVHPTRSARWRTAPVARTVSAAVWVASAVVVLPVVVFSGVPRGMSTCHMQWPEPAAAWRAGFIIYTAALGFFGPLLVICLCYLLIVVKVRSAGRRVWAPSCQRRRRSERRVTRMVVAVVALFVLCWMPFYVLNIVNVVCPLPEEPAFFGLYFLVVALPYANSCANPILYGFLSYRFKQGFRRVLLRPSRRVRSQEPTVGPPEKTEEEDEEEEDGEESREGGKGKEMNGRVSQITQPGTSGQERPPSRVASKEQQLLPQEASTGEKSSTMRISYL
UniProt P30872: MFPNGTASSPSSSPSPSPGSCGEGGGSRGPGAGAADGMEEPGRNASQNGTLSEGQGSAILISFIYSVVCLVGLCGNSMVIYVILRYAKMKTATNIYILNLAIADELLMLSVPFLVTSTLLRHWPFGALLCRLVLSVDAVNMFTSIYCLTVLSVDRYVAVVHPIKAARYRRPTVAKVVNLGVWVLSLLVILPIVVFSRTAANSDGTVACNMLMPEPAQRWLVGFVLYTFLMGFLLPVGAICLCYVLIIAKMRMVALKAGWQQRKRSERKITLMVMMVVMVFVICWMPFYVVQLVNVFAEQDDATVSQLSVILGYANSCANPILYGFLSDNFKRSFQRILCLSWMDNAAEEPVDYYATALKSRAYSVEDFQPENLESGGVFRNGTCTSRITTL
UniProt P30874: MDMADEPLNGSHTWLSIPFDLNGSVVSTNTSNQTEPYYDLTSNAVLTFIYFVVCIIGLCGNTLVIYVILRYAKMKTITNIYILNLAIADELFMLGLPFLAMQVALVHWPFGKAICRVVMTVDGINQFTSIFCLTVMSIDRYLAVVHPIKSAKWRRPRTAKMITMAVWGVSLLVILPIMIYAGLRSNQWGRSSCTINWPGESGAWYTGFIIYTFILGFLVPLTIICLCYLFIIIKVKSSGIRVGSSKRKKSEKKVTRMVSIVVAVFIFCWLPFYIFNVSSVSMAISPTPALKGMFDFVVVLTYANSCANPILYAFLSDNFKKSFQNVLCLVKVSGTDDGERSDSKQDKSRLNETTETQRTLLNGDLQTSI

How the values were obtained:
Melanocortin MC5 = Melanocortin MC5 (Homo sapiens, UniProt P33032); assay: Melanocortin MC5 radioligand binding; details: for % Inh.: 10 μM
Melanocortin MC3 = Melanocortin MC3 (Homo sapiens, UniProt P41968); assay: Melanocortin MC3 radioligand binding; details: 10 μM
Melanocortin MC1 = Melanocortin MC1 radioligand binding; details: 10 μM
MCH (h) = MCH (h) (Homo sapiens, UniProt Q99705); assay: MCH (h) radioligand binding; details: 10 μM
Melanocortin MC4 = Melanocortin MC4 (Homo sapiens, UniProt P32245); assay: Melanocortin MC4 radioligand binding; details: 10 μM
Somatostatin sst2 [1] = assay: Somatostatin sst2 tissue assay, guinea pig ileum; details: 1 μM
Somatostatin sst5 [2] = target: Somatostatin sst5 (Homo sapiens, UniProt P35346); assay: Somatostatin sst5 radioligand binding; details: Hill coefficient
Somatostatin sst4 = Somatostatin sst4 (Homo sapiens, UniProt P31391); assay: Somatostatin sst4 radioligand binding; details: Hill coefficient
MCF-7 = assay: alamarBlue tumor cell proliferation assay, Breast, MCF-7; details: for Percent Growth (Mean ± SEM, n = 2): 72-hour incubation, MCF-7
Somatostatin sst3 = Somatostatin sst3 (Homo sapiens, UniProt P32745); assay: Somatostatin sst3 radioligand binding; details: Hill coefficient
Somatostatin sst1 = Somatostatin sst1 (Homo sapiens, UniProt P30872); assay: Somatostatin sst1 radioligand binding; details: Hill coefficient
MIA PaCa-2 = assay: alamarBlue tumor cell proliferation assay, Pancreas, MIA PaCa-2; details: for Percent Growth (Mean ± SEM, n = 2): 72-hour incubation, MIA PaCa-2
Somatostatin sst2 [3] = target: Somatostatin sst2 (Homo sapiens, UniProt P30874); assay: Somatostatin sst2 radioligand binding; details: Hill coefficient
Somatostatin sst5 [4] = assay: Somatostatin sst5 tissue assay, guinea pig vas deferens; details: 1 μM

For SLWCVCPFRVCPPCHGR^ (335), the “% Inh.” value (Melanocortin MC5) was 96%, the “% Inh.” value (Melanocortin MC3) was 67% and the “% Inh.” value (Melanocortin MC1) was 60%. The “% Inh.” value (MCH (h)) was 83% and the “% Inh.” value (Melanocortin MC4) was 67%.
For SLWCVCPFRVCPPCHGR^ (334), the “% Inh.” value (Melanocortin MC5) was 89%, the “% Inh.” value (Melanocortin MC1) was 66% and the “% Inh.” value (MCH (h)) was 65%. For the same compound, the “% Inh.” value (Melanocortin MC4) was 58%.
For `CC(C)C[C@H](NC(=O)[C@@H](N)CO)C(=O)N[C@@H](Cc1c[nH]c2ccccc12)C(=O)N[C@H]1CSSC[C@@H]2NC(=O)[C@H](C(C)C)NC(=O)[C@H](CCCNC(=N)N)NC(=O)[C@H](Cc3ccccc3)NC(=O)[C@@H]3CCCN3C(=O)[C@H](CSSC[C@@H](C(=O)N[C@@H](Cc3c[nH]cn3)C(N)=O)NC(=O)[C@@H]3CCCN3C(=O)[C@@H]3CCCN3C2=O)NC(=O)[C@H](C(C)C)NC1=O`, the nh (Melanocortin MC5; Hill coefficient) was 0.762.
`CC(C)C[C@H](N)C(=O)N[C@@H](Cc1ccccc1)C(=O)N[C@H]1CSSC[C@@H](C(=O)N[C@@H](Cc2c[nH]c3ccccc23)C(=O)N2CCC[C@H]2C(=O)N[C@@H](CCCNC(=N)N)C(=O)N2CCC[C@H]2C(=O)N[C@@H](Cc2ccc(O)cc2)C(=O)N2CCC[C@H]2C(=O)N[C@@H](Cc2c[nH]c3ccccc23)C(=O)N[C@@H](CCCNC(=N)N)C(=O)O)NC(=O)[C@H](CO)NC(=O)[C@H](CCCCN)NC(=O)[C@@H](Cc2c[nH]c3ccccc23)NC(=O)[C@H](Cc2ccccc2)NC1=O` was tested, and the “AG (Agonist): inhibition of contraction relative to somatostatin28 responses” value (Somatostatin sst2 [1]) was 68%, the nh (Somatostatin sst5 [2]) was 0.961 and the nh (Somatostatin sst4) was 1.26. For the same compound, the “Percent Growth (Mean ± SEM, n = 2)” value (MCF-7; 0.01 μM) was 100 ± 8%, the “Percent Growth (Mean ± SEM, n = 2)” value (MCF-7; 0.1 μM) was 88 ± 12% and the “Percent Growth (Mean ± SEM, n = 2)” value (MCF-7; 1 μM) was 87 ± 9%. For the same compound, the “Percent Growth (Mean ± SEM, n = 2)” value (MCF-7; 10 μM) was 102 ± 14%, the “Percent Growth (Mean ± SEM, n = 2)” value (MCF-7; 100 μM) was −43 ± 11% and the “Estimated TGI (Total Growth Inhibition)” value (MCF-7; MCF-7, semi-quantitative, nonlinear regression) was 81 µM. The nh (Somatostatin sst3) was 0.714, the nh (Somatostatin sst1) was 0.736 and the “Percent Growth (Mean ± SEM, n = 2)” value (MIA PaCa-2; 0.01 μM) was 102 ± 3%. The “Percent Growth (Mean ± SEM, n = 2)” value (MIA PaCa-2; 0.1 μM) was 102 ± 6%, the “Percent Growth (Mean ± SEM, n = 2)” value (MIA PaCa-2; 1 μM) was 100 ± 4% and the “Percent Growth (Mean ± SEM, n = 2)” value (MIA PaCa-2; 10 μM) was 109 ± 2%. For the same compound, the “Percent Growth (Mean ± SEM, n = 2)” value (MIA PaCa-2; 100 μM) was −14 ± 9%, the “Estimated TGI (Total Growth Inhibition)” value (MIA PaCa-2; MIA PaCa-2, semi-quantitative, nonlinear regression) was 95 µM and the nh (Somatostatin sst2 [3]) was 1.24. For the same compound, the “AG (Agonist): inhibition of contraction relative to somatostatin28 responses” value (Somatostatin sst5 [4]) was 61%.
